Measured values as given in US20230058961A1, “SUBSTITUTED HETEROCYCLICS WITH THERAPEUTIC ACTIVITY IN HIV” (New York Blood Center, Inc., priority 2019, published 2023).

Each molecule was assayed on pseudovirus HIV-1 HXB2. Conditions: selectivity index SI=CC50/IC50, TZM-bl cells.
Format: cell-based

**Q.** How did the SI turn out when `NCC(NC(=O)c1ccc(-c2ccc(C(F)(F)F)cn2)[nH]1)c1csc(CO)n1` (stereo not shown) [Compound 66, N-(2-Amino-1-(2-(hydroxymethyl)thiazol-4-yl)ethyl)-5-(5-(trifluoromethyl)pyridin-2-yl)-1H-pyrrole-2-carboxamide] was run?
**A.** The SI was 50.

**Q.** With `NCC(NC(=O)c1ccc(-c2ccc(Cl)cn2)[nH]1)c1csc(CO)n1` (stereo not shown) [Compound 68, N-(2-Amino-1-(2-(hydroxymethyl)thiazol-4-yl)ethyl)-5-(5-chloropyridin-2-yl)-1H-pyrrole-2-carboxamide] as the molecule, how does the SI read?
**A.** The SI was over 12.9.

**Q.** How did the SI turn out when `NCC(NC(=O)c1ccc(-c2ccc(C(F)(F)F)cn2)[nH]1)c1nc(CCO)cs1` (stereo not shown) [Compound 26, N-(2-Amino-1-(4-(2-hydroxyethyl)thiazol-2-yl)ethyl)-5-(5-(trifluoromethyl)pyridin-2-yl)-1H-pyrrole-2-carboxamide] was run?
**A.** Its SI is 120.

**Q.** How did the SI turn out when `Cc1cc(-c2ccc(C(F)(F)F)cn2)[nH]c1C(=O)NC(C)(CN)c1nc(CO)cs1` (racemic) [Compound 31, N-(1-Amino-2-(4-(hydroxymethyl)thiazol-2-yl)propan-2-yl)-3-methyl-5-(5-(trifluoromethyl)-pyridin-2-yl)-1H-pyrrole-2-carboxamide] was run?
**A.** The SI was over 26.

**Q.** Which SI does the source give for `NCC(NC(=O)c1ccc(-c2ccc(C(F)(F)F)cn2)[nH]1)c1nc(CCO)cs1` (stereo not shown) [Compound 25, N-(2-Amino-1-(4-(2-hydroxyethyl)thiazol-2-yl)ethyl)-5-(5-(trifluoromethyl)pyridin-2-yl)-1H-pyrrole-2-carboxamide] here?
**A.** Its SI is 59.

**Q.** `Cc1cc(-c2ccc(C(F)(F)F)cn2)[nH]c1C(=O)NC(CN)c1csc(CO)n1` (stereo not shown) [Compound 63, N-(2-Amino-1-(2-(hydroxymethyl)thiazol-4-yl)ethyl)-3-methyl-5-(5-(trifluoromethyl)pyridin-2-yl)-1H-pyrrole-2-carboxamide] was tested. Which SI did it give?
**A.** The SI was 30.2.

**Q.** `NCC(NC(=O)c1ccc(-c2ccc(C(F)(F)F)cn2)[nH]1)c1ncc(C(O)CO)s1` (stereo not shown) [Compound 13, N-(2-Amino-1-(5-(1,2-dihydroxyethyl)thiazol-2-yl)ethyl)-5-(5-(trifluoromethyl)pyridin-2-yl)-1H-pyrrole-2-carboxamide] was tested. Which SI did it give?
**A.** Its SI is over 54.

**Q.** With `CC(C)(N)C(NC(=O)c1ccc(-c2ccc(C(F)(F)F)cn2)[nH]1)c1nc(CO)cs1` (stereo not shown) [Compound 23, N-(2-Amino-1-(4-(hydroxymethyl)thiazol-2-yl)-2-methylpropyl)-5-(5-(trifluoromethyl)pyridin-2-yl)-1H-pyrrole-2-carboxamide] as the molecule, how does the SI read?
**A.** Its SI is 35.

**Q.** For `NCC(NC(=O)c1ccc(-c2ccc(Cl)cn2)[nH]1)c1cnc(CO)s1` (stereo not shown) [Compound 60, N-(2-Amino-1-(2-(hydroxymethyl)thiazol-5-yl)ethyl)-5-(5-chloropyridin-2-yl)-1H-pyrrole-2-carboxamide], which SI is on record?
**A.** The SI was over 29.4.

**Q.** For `NCC(NC(=O)c1ccc(-c2ccc(C(F)(F)F)cn2)[nH]1)c1nc(CCCO)cs1` (stereo not shown) [Compound 27, N-(2-Amino-1-(4-(3-hydroxypropyl)thiazol-2-yl)ethyl)-5-(5-(trifluoromethyl)pyridin-2-yl)-1H-pyrrole-2-carboxamide], which SI is on record?
**A.** Its SI is over 49.5.

**Q.** With `Cc1cc(-c2ccc(Cl)cn2)[nH]c1C(=O)NC(CN)c1ncc(CO)s1` (stereo not shown) [Compound 4, N-(2-Amino-1-(5-(hydroxymethyl)thiazol-2-yl)ethyl)-5-(5-chloropyridin-2-yl)-3-methyl-1H-pyrrole-2-carboxamide] as the molecule, how does the SI read?
**A.** Its SI is 39.6.

**Q.** With `NCC(NC(=O)c1ccc(-c2ccc(Cl)cn2)[nH]1)c1nc(CO)cs1` (stereo not shown) [Compound 16, N-(2-Amino-1-(4-(hydroxymethyl)thiazol-2-yl)ethyl)-5-(5-chloropyridin-2-yl)-1H-pyrrole-2-carboxamide] as the molecule, how does the SI read?
**A.** The SI was over 78.

**Q.** With `Cc1cc(-c2ccc(C(F)(F)F)cn2)[nH]c1C(=O)NC(CN)c1cnc(CO)s1` (stereo not shown) [Compound 62, N-(2-Amino-1-(2-(hydroxymethyl)thiazol-5-yl)ethyl)-3-methyl-5-(5-(trifluoromethyl)pyridin-2-yl)-1H-pyrrole-2-carboxamide] as the molecule, how does the SI read?
**A.** The SI was 9.8.

**Q.** With `Cc1cc(-c2ccc(C(F)(F)F)cn2)[nH]c1C(=O)NC(CN)c1csc(CO)n1` (stereo not shown) [Compound 64, N-(2-Amino-1-(2-(hydroxymethyl)thiazol-4-yl)ethyl)-3-methyl-5-(5-(trifluoromethyl)pyridin-2-yl)-1H-pyrrole-2-carboxamide] as the molecule, how does the SI read?
**A.** Its SI is 36.8.

**Q.** With `NCC(NC(=O)c1ccc(-c2ccc(C(F)(F)F)cn2)[nH]1)c1ncc(C(O)CO)s1` (stereo not shown) [Compound 14, N-(2-Amino-1-(5-(1,2-dihydroxyethyl)thiazol-2-yl)ethyl)-5-(5-(trifluoromethyl)pyridin-2-yl)-1H-pyrrole-2-carboxamide] as the molecule, how does the SI read?
**A.** The SI was over 19.

**Q.** With `Cc1cc(-c2ccc(Cl)cn2)[nH]c1C(=O)NC(CN)c1ncc(CO)s1` (stereo not shown) [Compound 3, N-(2-Amino-1-(5-(hydroxymethyl)thiazol-2-yl)ethyl)-5-(5-chloropyridin-2-yl)-3-methyl-1H-pyrrole-2-carboxamide] as the molecule, how does the SI read?
**A.** Its SI is 81.9.

**Q.** For `NCC(NC(=O)c1ccc(-c2ccc(C(F)(F)F)cn2)[nH]1)c1nc(CCCO)cs1` (stereo not shown) [Compound 28, N-(2-Amino-1-(4-(3-hydroxypropyl)thiazol-2-yl)ethyl)-5-(5-(trifluoromethyl)pyridin-2-yl)-1H-pyrrole-2-carboxamide], which SI is on record?
**A.** Its SI is 91.

**Q.** With `CC(CN)(NC(=O)c1ccc(-c2ccc(C(F)(F)F)cn2)[nH]1)c1nc(CO)cs1` (racemic) [Compound 32, N-(1-Amino-2-(4-(hydroxymethyl)thiazol-2-yl)propan-2-yl)-5-(5-(trifluoromethyl)pyridin-2-yl)-1H-pyrrole-2-carboxamide] as the molecule, how does the SI read?
**A.** The SI was over 14.

**Q.** `NCC(NC(=O)c1ccc(-c2ccc(C(F)(F)F)cn2)[nH]1)c1nccs1` (stereo not shown) [Compound 38, N-(2-Amino-1-(thiazol-2-yl)ethyl)-5-(5-(trifluoromethyl)pyridin-2-yl)-1H-pyrrole-2-carboxamide] was tested. Which SI did it give?
**A.** The SI was 78.0.

**Q.** `CC(C)(N)C(NC(=O)c1ccc(-c2ccc(C(F)(F)F)cn2)[nH]1)c1nc(CO)cs1` (stereo not shown) [Compound 24, N-(2-Amino-1-(4-(hydroxymethyl)thiazol-2-yl)-2-methylpropyl)-5-(5-(trifluoromethyl)pyridin-2-yl)-1H-pyrrole-2-carboxamide] was tested. Which SI did it give?
**A.** The SI was 102.

**Q.** With `NCC(NC(=O)c1ccc(-c2ccc(C(F)(F)F)cn2)[nH]1)c1csc(CO)n1` (stereo not shown) [Compound 65, N-(2-Amino-1-(2-(hydroxymethyl)thiazol-4-yl)ethyl)-5-(5-(trifluoromethyl)pyridin-2-yl)-1H-pyrrole-2-carboxamide] as the molecule, how does the SI read?
**A.** The SI was 52.7.

**Q.** For `NCC(NC(=O)c1ccc(-c2ccc(C(F)(F)F)cn2)[nH]1)c1nc(C(O)CO)cs1` (stereo not shown) [Compound 30, N-(2-Amino-1-(4-(1,2-dihydroxyethyl)thiazol-2-yl)ethyl)-5-(5-(trifluoromethyl)pyridin-2-yl)-1H-pyrrole-2-carboxamide], which SI is on record?
**A.** Its SI is over 30.

**Q.** Which SI does the source give for `NCC(NC(=O)c1ccc(-c2ccc(C(F)(F)F)cn2)[nH]1)c1nc(CO)c(CO)s1` (stereo not shown) [Compound 35, N-(2-Amino-1-(4,5-bis(hydroxymethyl)thiazol-2-yl)ethyl)-5-(5-(trifluoromethyl)pyridin-2-yl)-1H-pyrrole-2-carboxamide] here?
**A.** Its SI is 63.

**Q.** Which SI does the source give for `NCC(NC(=O)c1ccc(-c2ccc(C(F)(F)F)cn2)[nH]1)c1ncc(CO)s1` (stereo not shown) [Compound 6, N-(2-Amino-1-(5-(hydroxymethyl)thiazol-2-yl)ethyl)-5-(5-(trifluoromethyl)pyridin-2-yl)-1H-pyrrole-2-carboxamide] here?
**A.** The SI was 101.

**Q.** With `NCC(NC(=O)c1ccc(-c2ccc(C(F)(F)F)cn2)[nH]1)c1cnc(CO)s1` (stereo not shown) [Compound 57, N-(2-Amino-1-(2-(hydroxymethyl)thiazol-5-yl)ethyl)-5-(5-(trifluoromethyl)pyridin-2-yl)-1H-pyrrole-2-carboxamide] as the molecule, how does the SI read?
**A.** Its SI is over 58.

**Q.** `NCC(NC(=O)c1ccc(-c2ccc(C(F)(F)F)cn2)[nH]1)c1nccs1` (stereo not shown) [Compound 37, N-(2-Amino-1-(thiazol-2-yl)ethyl)-5-(5-(trifluoromethyl)pyridin-2-yl)-1H-pyrrole-2-carboxamide] was tested. Which SI did it give?
**A.** The SI was 45.

**Q.** Which SI does the source give for `NCC(NC(=O)c1ccc(-c2ccc(C(F)(F)F)cn2)[nH]1)c1nc(C(O)CO)cs1` (stereo not shown) [Compound 29, N-(2-Amino-1-(4-(1,2-dihydroxyethyl)thiazol-2-yl)ethyl)-5-(5-(trifluoromethyl)pyridin-2-yl)-1H-pyrrole-2-carboxamide] here?
**A.** The SI was over 22.

**Q.** `NCC(NC(=O)c1ccc(-c2ccc(Cl)cn2)[nH]1)c1ncc(CO)s1` (stereo not shown) [Compound 2, N-(2-Amino-1-(5-(hydroxymethyl)thiazol-2-yl)ethyl)-5-(5-chloropyridin-2-yl)-1H-pyrrole-2-carboxamide] was tested. Which SI did it give?
**A.** The SI was 52.

**Q.** How did the SI turn out when `NCC(NC(=O)c1ccc(-c2ccc(Cl)cn2)[nH]1)c1csc(CO)n1` (stereo not shown) [Compound 67, N-(2-Amino-1-(2-(hydroxymethyl)thiazol-4-yl)ethyl)-5-(5-chloropyridin-2-yl)-1H-pyrrole-2-carboxamide] was run?
**A.** The SI was over 13.9.

**Q.** How did the SI turn out when `Cc1cc(-c2ccc(C(F)(F)F)cn2)[nH]c1C(=O)NC(c1ncc(CO)s1)C(C)(C)N` (stereo not shown) [Compound 12, N-(2-Amino-1-(5-(hydroxymethyl)thiazol-2-yl)-2-methylpropyl)-3-methyl-5-(5-(trifluoro-methyl)pyridin-2-yl)-1H-pyrrole-2-carboxamide] was run?
**A.** Its SI is 87.

**Q.** Which SI does the source give for `NCC(NC(=O)c1ccc(-c2ccc(Cl)cn2)[nH]1)c1nc(CO)cs1` (stereo not shown) [Compound 15, N-(2-Amino-1-(4-(hydroxymethyl)thiazol-2-yl)ethyl)-5-(5-chloropyridin-2-yl)-1H-pyrrole-2-carboxamide] here?
**A.** Its SI is over 26.

**Q.** How did the SI turn out when `NCC(NC(=O)c1ccc(-c2ccc(C(F)(F)F)cn2)[nH]1)c1ncc(CO)s1` (stereo not shown) [Compound 5, N-(2-Amino-1-(5-(hydroxymethyl)thiazol-2-yl)ethyl)-5-(5-(trifluoromethyl)pyridin-2-yl)-1H-pyrrole-2-carboxamide] was run?
**A.** The SI was over 127.

**Q.** With `Cc1cc(-c2ccc(C(F)(F)F)cn2)[nH]c1C(=O)NC(CN)c1cnc(CO)s1` (stereo not shown) [Compound 61, N-(2-Amino-1-(2-(hydroxymethyl)thiazol-5-yl)ethyl)-3-methyl-5-(5-(trifluoromethyl)pyridin-2-yl)-1H-pyrrole-2-carboxamide] as the molecule, how does the SI read?
**A.** The SI was 28.3.

**Q.** For `Cc1cc(-c2ccc(C(F)(F)F)cn2)[nH]c1C(=O)NC(c1ncc(CO)s1)C(C)(C)N` (stereo not shown) [Compound 11, N-(2-Amino-1-(5-(hydroxymethyl)thiazol-2-yl)-2-methylpropyl)-3-methyl-5-(5-(trifluoro-methyl)pyridin-2-yl)-1H-pyrrole-2-carboxamide], which SI is on record?
**A.** The SI was 59.
